Several values for one entry are separate records, joined by “and”; a condition that tells them apart may be missing. Identical values can stand only once. Entries after “also recorded” stand apart in the source; their conditions may differ.
System: reverse transcriptase of mutant HIV-1 strains
Test: Characterization of RT mutations of mutant HIV-1 strains selected under the compounds (PCR, sequencing)
Type: cell-based
[1] = selection concentration not stated

SMILES	Amino acid mutation in RT selected [1]	Amino acid position of RT mutation selected [1]	Codon change in RT selected [1]	Amino acid mutation in RT selected (selected at 0.1 μg/ml)	Amino acid position of RT mutation selected (selected at 0.1 μg/ml)	Codon change in RT selected (selected at 0.1 μg/ml)	Amino acid mutation in RT selected (selected at 0.5 μg/ml)	Amino acid position of RT mutation selected (selected at 0.5 μg/ml)	Codon change in RT selected (selected at 0.5 μg/ml)
CC(C)OC(=O)c1cc(NC(=S)OC(C)C)ccc1Cl [Compound B]	substitution of Lys (AAA) by Glu (GAA)	101	AAA→GAA	–	–	–	–	–	–
O=C(OC1CCCCC1)c1cc(NC(=S)c2ccsc2)ccc1Cl [Compound V]	–	–	–	101-Lys→Ile and 141-Gly→Glu and Lys→Ile and Gly→Glu	101 and 141	AAA→ATA; also recorded: GGG→GAG	Lys→Asn	103	AAA→AAC
Cc1occc1C(=S)Nc1ccc(Cl)c(C(=O)OCC(C)C)c1 [Compound II]	–	–	–	Leu→Ile	100	TTA→ATA	–	–	–
CC1=C(C(=O)Nc2ccc(Cl)c(C(=O)OC(C)C)c2)SCCO1 [Compound A]	Glu→Lys	138	GAG→AAG	–	–	–	–	–	–
Cc1occc1C(=S)Nc1ccc(Cl)c(C=NOC(C)(C)C)c1 [Compound I]	–	–	–	Lys→Asn	103	AAA→AAC	–	–	–
Cc1occc1C(=S)Nc1ccc(Cl)c(C(=O)OC2CCCCC2)c1 [Compound III]	–	–	–	Lys→Asn	103	AAA→AAC	–	–	–
Cc1occc1C(=S)Nc1ccc(Cl)c(C(=O)OC2CCCC2)c1 [Compound IV]	–	–	–	103 Lys→Thr and Lys→Thr	103	AAA→ACA	–	–	–

— patent US5968910A, “Compositions containing two or three inhibitors of different HIV reverse transcriptases” (priority 1994, dated 1999)
